Measured values from several laboratories, pooled; numbers as filed in NIAID ChemDB.

All rows: target-level tests; organism: HIV-1; target: Integrase; measure: IC50

Conditions beyond the fields shown may differ between rows.

| structure | read by | value |
|---|---|---|
| O=C(NCC(F)(F)F)c1cn2ccn(Cc3cccc(Cl)c3)c(=O)c2c(O)c1=O | ELISA | 0.01–0.1 µM |
| NCCCCCC(=O)Nc1nc(C(=O)Nc2nc(C(=O)Nc3nc(C(=O)NC[C@H](O)CO)cs3)cs2)cs1 | 3′ processing | 30 µM |
| CCOC(=O)c1ccc(N=Nc2c(S(=O)(=O)O)cc3cc(NC(=O)Nc4ccc5c(O)c(N=Nc6ccc(C(=O)OCC)cc6)c(S(=O)(=O)O)cc5c4)ccc3c2O)cc1 | 3′ processing | 2.7 µM |
| CN1CCn2cc(C(=O)NCc3ccc(F)cc3)c(O)c2C1=O | strand transfer | <0.7 µM |
| NCCCCCC(=O)Nc1nc(C(=O)Nc2nc(C(=O)NC[C@H](O)CO)cs2)cs1 | 3′ processing | 350 µM |
| O=C1c2c(O)c(=O)c(-c3ccccn3)cn2CCN1CCCc1cccc(Cl)c1F | ELISA | 0.01–0.1 µM |
| CN(C)CCCNC(=O)c1csc(NC(=O)CCCCCN)n1 | 3′ processing | 1000 µM |
| CCOC(=O)c1cn2c(c1O)C(=O)N(Cc1ccc(F)c(Cl)c1)CC2 | strand transfer | <1.5 µM |
| Nc1ncnc2c1ncn2[C@@H]1CO[C@H](COP(=O)(O)O)C1 | strand transfer | >200 µM |
| O=C(NC1CC1)c1cn2c(c1O)C(=O)N(Cc1ccc(F)cc1)CC2 | strand transfer | <0.7 µM |
| Cc1cccc(Cc2cccc(Cc3cccc(Cc4cccc(C)c4OCC(=O)/C=C(\O)c4ccc(F)cc4)c3O)c2OCC(=O)/C=C(\O)c2ccc(F)cc2)c1O | strand transfer | 13.4 µM |
| O=C(O)C(=O)/C=C(\O)c1cccc(NC(=O)c2cc([N+](=O)[O-])cc([N+](=O)[O-])c2O)c1 | strand transfer / gel | 2 µM |
| O=c1c(-c2ccncc2)cn2ccn(Cc3cccc(Cl)c3)c(=O)c2c1O | ELISA | <0.01 µM |
| CCOC(=O)c1cn2c(c1O)C(=O)N(Cc1cccc(F)c1)CC2 | strand transfer | <1.5 µM |
| Cn1ncnc1-c1cn2ccn(Cc3ccc(F)c(Cl)c3)c(=O)c2c(O)c1=O | ELISA | <0.01 µM |
| O=C(O)/C(O)=C/C(=O)N(CCCc1ccc(-c2ccccc2)cc1)Cc1ccc(F)cc1 | strand transfer | <70 µM |
| Cc1cn([C@H]2C[C@H](O)[C@@H](COP(=O)(O)O[C@H]3[C@H](n4cnc5c(N)ncnc54)CO[C@@H]3COP(=O)(O)O)O2)c(=O)[nH]c1=O | 3′ processing | 150 µM |
| O=C(O)CN(CCN(CC(=O)O)CC(=O)NCCCCCCNC(=O)c1csc(NC(=O)c2csc(NC(=O)CCCCCNC(=O)CN(CCN(CC(=O)O)CC(=O)O)CC(=O)O)n2)n1)CC(=O)O | 3′ processing | 300 µM |
| Cc1ccc(CN(C(=O)/C=C(\O)C(=O)O)c2ccc(F)cc2)cc1 | strand transfer | <70 µM |
| Cc1cccc(Cc2cccc(Cc3cccc(Cc4cccc(C)c4OCC(=O)/C=C(\O)c4ccccc4)c3O)c2OCC(=O)/C=C(\O)c2ccccc2)c1O | strand transfer | 16.3 µM |
| CCc1ccccc1-c1cn2ccn(Cc3cccc(Cl)c3)c(=O)c2c(O)c1=O | ELISA | 0.01–0.1 µM |
| CC(=O)/C=C/c1ccc(N=Nc2c(S(=O)(=O)O)cc3cc(NC(=O)Nc4ccc5c(O)c(N=Nc6ccc(/C=C/C(C)=O)cc6)c(S(=O)(=O)O)cc5c4)ccc3c2O)cc1 | 3′ processing | 2.7 µM |
| Cc1cccc(Cc2cccc(Cc3cccc(Cc4cccc(C)c4OCC(=O)/C=C(\O)c4ccc(Cl)cc4)c3O)c2OCC(=O)/C=C(\O)c2ccc(Cl)cc2)c1O | strand transfer | 5.9 µM |
| O=C(Nc1ccc2c(O)cc(S(=O)(=O)O)cc2c1)Nc1ccc2c(O)cc(S(=O)(=O)O)cc2c1 | 3′ processing | 4 µM |
| CNC(=O)c1cn2c(c1O)C(=O)N(Cc1ccc(F)cc1)CC2 | strand transfer | <0.7 µM |
| O=C(O)CC(C(=O)O)c1ccc(N=Nc2c(S(=O)(=O)O)cc3cc(NC(=O)Nc4ccc5c(O)c(N=Nc6ccc(C(CC(=O)O)C(=O)O)cc6)c(S(=O)(=O)O)cc5c4)ccc3c2O)cc1 | 3′ processing | 0.3 µM |
| CN(C)CCCNC(=O)c1csc(NC(=O)c2csc(NC(=O)CCCCCN)n2)n1 | 3′ processing | 30 µM |
| Cc1cc(C(=O)O)ccc1N=Nc1c(S(=O)(=O)O)cc2cc(NC(=O)Nc3ccc4c(O)c(N=Nc5ccc(C(=O)O)cc5C)c(S(=O)(=O)O)cc4c3)ccc2c1O | strand transfer | 0.7 µM |
| Cc1cc(C(C)(C)C)cc(Cc2cc(C(C)(C)C)cc(Cc3cc(C(C)(C)C)cc(Cc4cc(C(C)(C)C)cc(C)c4OCC(=O)/C=C(\O)c4ccc(Cl)cc4)c3O)c2OCC(=O)/C=C(\O)c2ccc(Cl)cc2)c1O | strand transfer | >50 µM |
| O=C(O)c1ccc(N=Nc2c(S(=O)(=O)O)cc3cc(S(=O)(=O)O)c(N=Nc4ccc(C(=O)O)cc4)c(O)c3c2O)cc1 | 3′ processing | 2.5 µM |
| COc1ccc(/C(O)=C/C(=O)COc2c(C)cc(C(C)(C)C)cc2Cc2cc(C(C)(C)C)cc(Cc3cc(C(C)(C)C)cc(Cc4cc(C(C)(C)C)cc(C)c4O)c3OCC(=O)/C=C(\O)c3ccc(OC)cc3)c2O)cc1 | strand transfer | >50 µM |
| CN(CCc1ccc(F)cc1)C(=O)/C=C(\O)C(=O)O | strand transfer | <70 µM |
| CN(C)CCCNC(=O)c1csc(NC(=O)c2csc(NC(=O)c3csc(NC(=O)CCCCCNC(=O)CN(CCN(CC(=O)O)CC(=O)O)CC(=O)O)n3)n2)n1 | 3′ processing | 10 µM |
| O=C(O)c1cn2ccn(Cc3cccc(Cl)c3)c(=O)c2c(O)c1=O | ELISA | 0.1–1 µM |
| O=C(O)CCc1ccc(N=Nc2c(S(=O)(=O)O)cc3cc(NC(=O)Nc4ccc5c(O)c(N=Nc6ccc(CCC(=O)O)cc6)c(S(=O)(=O)O)cc5c4)ccc3c2O)cc1 | 3′ processing | 0.5 µM |
| CCOC(=O)c1cn2c(c1O)C(=O)N(Cc1ccccc1)CC2 | strand transfer | <0.7 µM |
| CC(C)N(Cc1ccc(F)cc1)C(=O)/C=C(\O)C(=O)O | strand transfer | >70 µM |
| O=C1c2c(O)c(=O)c(-c3nccs3)cn2CCN1CCCc1ccccc1F | ELISA | 0.01–0.1 µM |
| CCOC(=O)c1cccc(N=Nc2c(S(=O)(=O)O)cc3cc(NC(=O)Nc4ccc5c(O)c(N=Nc6cccc(C(=O)OCC)c6)c(S(=O)(=O)O)cc5c4)ccc3c2O)c1 | 3′ processing | 2 µM |
| CC(=O)CNC(=O)c1cn2c(c(O)c1=O)C(=O)N(Cc1cccc(Cl)c1)CC2 | ELISA | 0.01–0.1 µM |
| CN(C)CCCNC(=O)c1csc(NC(=O)c2csc(NC(=O)CCCCCNC(=O)CN(CCN(CC(=O)O)CC(=O)O)CC(=O)O)n2)n1 | 3′ processing | 860 µM |

For reference, 4 entries again:

| structure | read by | value |
|---|---|---|
| CCc1ccccc1-c1cn2ccn(Cc3cccc(Cl)c3)c(=O)c2c(O)c1=O | ELISA | 0.01–0.1 µM |
| CC(=O)/C=C/c1ccc(N=Nc2c(S(=O)(=O)O)cc3cc(NC(=O)Nc4ccc5c(O)c(N=Nc6ccc(/C=C/C(C)=O)cc6)c(S(=O)(=O)O)cc5c4)ccc3c2O)cc1 | 3′ processing | 2.7 µM |
| O=C(O)CN(CCN(CC(=O)O)CC(=O)NCCCCCCNC(=O)c1csc(NC(=O)c2csc(NC(=O)CCCCCNC(=O)CN(CCN(CC(=O)O)CC(=O)O)CC(=O)O)n2)n1)CC(=O)O | 3′ processing | 300 µM |
| CCOC(=O)c1cn2c(c1O)C(=O)N(Cc1ccccc1)CC2 | strand transfer | <0.7 µM |

Two numbers with a dash give a range or band. ICn is the concentration giving n% inhibition.